Results of unrelated studies side by side (data: NIAID ChemDB).

Shared fields: whole-cell or culture tests; organism: Coxsackie virus; endpoint: EC50

ECn: concentration that inhibits the pathogen or its effect by n%.

compound	strain	cells	method	value
CC(=O)OC1C=COC=C2C[C@@]34S[C@]5(CC6=COC=CC(OC(C)=O)C6N5C3=O)C(=O)N4C21	TYPE A21	HeLa		3.8 µg/mL
Cc1nc(N2CC[N+]3(CC2)CC[N+]2(CCN(c4nc(C)nc5c4no[n+]5[O-])CC2)CC3)c2c(no[n+]2[O-])n1	B3	HeLa	cytopathic effect	>70 µg/mL
CC(=O)OC1C=COC=C2C[C@@]34SC(=O)S[C@]5(CC6=COC=CC(OC(C)=O)C6N5C3=O)C(=O)N4C21	TYPE A21	HeLa		0.5 µg/mL
Nc1cc(OCCOCP(=O)(O)O)nc(N)n1	TYPE B4		cytopathic effect	>190 µM
CSc1nsc(-c2ccccc2)c1C#N	TYPE B1	HEP-2	plaque count	>20 µg/mL
Nc1[nH]n2c(=O)cc(CN3CC[N+]4(CC3)CC[N+]3(CCN(Cc5cc(=O)n6[nH]c(N)c([N+](=O)[O-])c6n5)CC3)CC4)nc2c1[N+](=O)[O-]	B3	HeLa	cytopathic effect	>70 µg/mL
CC(=O)OC1C=COC=C2C[C@@]34NC(=S)S[C@]5(CC6=COC=CC(OC(C)=O)C6N5C3=O)C(=O)N4C21	TYPE A21	HeLa		3 µg/mL
O=c1[nH]cnc(N2CC[N+]3(CC2)CC[N+]2(CCN(c4nc[nH]c(=O)c4[N+](=O)[O-])CC2)CC3)c1[N+](=O)[O-]	B3	HeLa	cytopathic effect	>70 µg/mL
CC1(Cn2cnc3c(N)nc(Cl)nc32)CC1CO	TYPE B3			43.49 µg/mL
CN(C)c1nsc(-c2ccccc2)c1C#N	TYPE B1	HEP-2	plaque count	>15 µg/mL
N#Cc1ccc(N2CC[N+]3(CC2)CC[N+]2(CCN(c4ccc(C#N)cc4[N+](=O)[O-])CC2)CC3)c([N+](=O)[O-])c1	B3	HeLa	cytopathic effect	>70 µg/mL
CCCSc1nsc(-c2ccccc2)c1C(=O)OC	TYPE B1	HEP-2	plaque count	>50 µg/mL
CC(=O)OC1C=COC=C2C[C@@]3(SC(C)=O)C(=O)N4C5C(=COC=CC5OC(C)=O)C[C@@]4(SC(C)=O)C(=O)N3C21	TYPE A21	HeLa		0.09 µg/mL
O=C1N(CCCCCOc2ccc(-c3ccc(Cl)cc3)cc2)CCN1c1ccncc1	TYPE A24	RD	plaque count	1.3 µM
C[C@H](COc1cc(N)nc(N)n1)OCP(=O)(O)O	TYPE B4		cytopathic effect	>180 µM
CCO[C@@]12CC3=COC=CC(OC(C)=O)C3N1C(=O)[C@]1(S)CC3=COC=CC(OC(C)=O)C3N1C2=O	TYPE A21	HeLa		5.8 µg/mL
ClCN1CC[N+]2(CC1)CC[N+]1(CCN(CCl)CC1)CC2	B3	HeLa	cytopathic effect	>70 µg/mL
Nc1cc(OC[C@H](CO)OCP(=O)(O)O)nc(N)n1	TYPE B4		cytopathic effect	>15 µM
CCCSc1nsc(-c2ccccc2)c1C#N	TYPE B1	HEP-2	plaque count	>200 µg/mL
C[N+]1(C)CCN(c2cccc(N3CC[N+](C)(C)CC3)c2[N+](=O)[O-])CC1	B3	HeLa	cytopathic effect	>70 µg/mL
O=C1N2C3C(=COC=CC3O)CC23SSC12CC1=COC=CC(O)C1N2C3=O	TYPE A21	HeLa		0.007 µg/mL
Cc1nc(C2CCCCCC2)c([N+](=O)[O-])c(N2CC[N+]3(CC2)CC[N+]2(CCN(c4nc(C)nc(C5CCCCCC5)c4[N+](=O)[O-])CC2)CC3)n1	B3	HeLa	cytopathic effect	>70 µg/mL
NC(=O)c1c[se]c([C@@H]2O[C@H](CO)[C@@H](O)[C@H]2O)n1	TYPE B1/HA201468	HeLa	cytopathic effect	10 µg/mL

A second listing of 2 rows from above:

| compound | strain | cells | method | value |
|---|---|---|---|---|
| CC(=O)OC1C=COC=C2C[C@@]34S[C@]5(CC6=COC=CC(OC(C)=O)C6N5C3=O)C(=O)N4C21 | TYPE A21 | HeLa |  | 3.8 µg/mL |
| NC(=O)c1c[se]c([C@@H]2O[C@H](CO)[C@@H](O)[C@H]2O)n1 | TYPE B1/HA201468 | HeLa | cytopathic effect | 10 µg/mL |

Neighbouring rows are from separate reports. Blank or dashed fields: not listed here.